The list shows a part of the results, in another mix than the full data. Calls of active or inactive are those of the source. No stated cut-off is given here; in the data, active means inhibition above about 0.66%; inactive means the rest.
Biological target: Beta-lactamase TEM (Escherichia coli) (UniProt P62593)
Assay: Serine beta-lactamase TEM-1 inhibition, biochemical epi-absorbance counter-screen for IMP-1/VIM-2 inhibitor program (AID 2184)
Conditions: TEM-1 beta-lactamase, nitrocefin absorbance inhibition; at 5.6 µM; hits give high values

`Nc1cccc2c([As](=O)(O)O)cccc12` was tested, and the inhibition was active: 1.03%.

From PubChem BioAssay AID2184 (The Scripps Research Institute Molecular Screening Center, 2009)
